# Measured values published in PubChem BioAssay AID1117319 (Southern Research Institute, 2015).
# Some of the results follow. Records with an inconclusive call do not appear. Calls of active or inactive are those of the source.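 Rule for the calls: active = inhibition above a set limit at one or more doses, reproduced on every date tested; inconclusive = results disagree between test dates, or hit never tested in dose response; inactive = the rest.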
# Target: Virion infectivity factor (Human immunodeficiency virus type 1 group M subtype B (isolate BH10)) + Virion infectivity factor (Human immunodeficiency virus type 1 group M subtype B (isolate BRU/LAI)) + Virion infectivity factor (Human immunodeficiency virus type 1 group M subtype B (isolate PCV12)) + Virion infectivity factor (Human immunodeficiency virus type 1 group M subtype B (isolate HXB2)) + DNA dC->dU-editing enzyme APOBEC-3G (Homo sapiens) (UniProt P69720+P69721+P69722+P69723+Q9HC16)
# Assay: HIV-1 Vif–A3G interaction blockers – biochemical, TR-FRET, GST-Vif 1-94, biotin-A3G peptide, dose response retest, primary screen (AID 1117319);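 note: Vif residues 1-94 fused to GST binding biotinylated APOBEC3G peptide 110-148; 0% = full assay without inhibitor and 100% = GST in place of GST-Vif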
# Settings: TR-FRET GST-Vif / biotin-A3G peptide binding; stronger effect = higher value
row,SMILES,inhibition
1,c1ccc(CN2CCC(Nc3ccccc3)CC2)cc1,inactive: 1.68%
2,Cc1cc(N(CCCl)CCCl)ccc1C=O,inactive: -3.41%
3,CN(C)C1(CNC(=O)c2cccc(C#N)c2)CCCCC1,inactive: 1.87%
4,CC(C)(C)OC(=O)N1CCC(N(C(=O)c2ccccc2)c2ccc(Cl)cc2)CC1,inactive: -6.84%
5,N/C(=N\O)c1c(N)no[n+]1[O-],inactive: -0.35%
6,CCOC(=O)N1CCC(Nc2ccc(C)cc2)CC1,inactive: -0.38%
7,COc1ccc(C(=O)NCC2(N3CCOCC3)CCCCC2)cc1OC,inactive: 14.6%
8,CCCOc1ccc(C)cc1CN(CCCl)CCCl,inactive: -4.24%
9,CCC(CO)(C(=O)OC1CN2CCC1CC2)c1ccccc1 (stereo unspecified),inactive: -3.03%
10,COc1cccc(C(=O)N(c2cc(C)cc(C)c2)C2CCN(C(=O)OC(C)(C)C)CC2)c1,inactive: 0.09%
11,COc1cc(OC)cc(C(=O)NCC2(N3CCOCC3)CCCCC2)c1,inactive: 0.4%
12,CCCOc1ccc(C(=O)NCC2(N(C)C)CCCCC2)cc1,inactive: -0.4%
13,CC(C)(C)OC(=O)N1CCC(Nc2ccccc2)CC1,inactive: 0.57%
14,O=C(O)C1(Nc2ccccc2)CCN(Cc2ccccc2)CC1,inactive: -2.35%
15,CCOc1ncccc1C(=O)NCC1(N2CCOCC2)CCCCC1,inactive: -3.28%
16,CN1CCC(Nc2ccc(F)c(Cl)c2)CC1,inactive: 9.2%
17,O=C(NCC1(N2CCCCC2)CCCCC1)c1ccco1,inactive: 0.87%
18,Cn1c(=O)[nH]cc(N(CCCl)CCCl)c1=O,inactive: -2.93%
19,CN(C)c1ccc(C(=O)NCC2(N3CCCCC3)CCCCC2)cc1,inactive: -4.4%

row,SMILES,inhibition
1,Cc1ccccc1NC1(C#N)CCN(Cc2ccccc2)CC1,inactive: -6.45%
2,CCN1CCC(Nc2cccc(F)c2)CC1,inactive: 6.57%
3,Cc1ccc(NC2(C#N)CCN(Cc3ccccc3)CC2)cc1,inactive: -9.64%
4,Cc1ccc(C(=O)NCC2(N3CCCCC3)CCCCC2)o1,inactive: 2.68%
5,Fc1ccccc1NC1CCN(Cc2ccccc2)CC1,inactive: 1.08%
6,CC(=O)N(c1ccccc1)C1CCNCC1,inactive: -7.91%
7,COc1cc(C(=O)NCC2(N(C)C)CCCCC2)ccc1OC(F)F,inactive: 6%
8,Cc1ccc(OCC(C)C)c(CN(CCCl)CCCl)c1,inactive: 7.3%
9,CCCCOc1ccc(C(=O)NCC2(N3CCOCC3)CCCCC2)cc1,inactive: 0.62%
10,O=P1(N(CCCl)CCCl)SCCCS1,inactive: -1.68%
11,COc1ccc(NC2CCN(CCc3ccccc3)CC2)c(OC)c1,inactive: 29.1%
12,CCOc1ccc(C)cc1CN(CCCl)CCCl,inactive: 17.8%
13,CCOC(=O)N1CCC(Nc2ccc(OC)cc2)CC1,inactive: 5.14%
14,O=C(OC1CN2CCC1CC2)C1c2ccccc2Oc2ccccc21 (stereo unspecified),inactive: 4.74%
15,O=C(NCC1(N2CCCCC2)CCCCC1)c1ccc(Cl)s1,inactive: 1.03%
16,N#CC1(Nc2ccccc2)CCN(Cc2ccccc2)CC1,inactive: 2.72%
17,O=C(NCC1(N2CCCCC2)CCCCC1)c1ccc(Cl)nc1,inactive: -0.54%
18,Cc1cc(C)cc(N(C(=O)c2ccccc2)C2CCN(C(=O)OC(C)(C)C)CC2)c1,inactive: -7.21%
19,CSc1ccccc1C(=O)NCC1(N2CCCCC2)CCCCC1,inactive: 2.67%

row,SMILES,inhibition
1,Cc1cccc(NC2(C#N)CCN(Cc3ccccc3)CC2)c1,inactive: -1.13%
2,O=C(NCC1(N2CCCCC2)CCCCC1)c1ccc(=O)[nH]c1,inactive: -3.41%
3,O=C(NCC1(N2CCCCC2)CCCCC1)c1cccs1,inactive: 7.39%
4,COc1ccc(C(=O)NCC2(N3CCCCC3)CCCCC2)cc1,inactive: 1.2%
5,CC(C)(C)OC(=O)N1CCC(N(C(=O)c2ccccc2)c2ccc(F)cc2)CC1,inactive: -7.38%
6,COc1ccc(C(=O)NCC2(N3CCCCC3)CCCCC2)c(OC)c1OC,inactive: -1.97%
7,CCCOc1ccc(C(=O)NCC2(N(C)C)CCCCC2)cc1OC,inactive: -3.82%
8,O=C(NCC1(N2CCCCC2)CCCCC1)c1cncc(Br)c1,inactive: 0.22%
9,CN1CCC(Nc2cccc(F)c2)CC1,inactive: -1.12%
10,COc1cc(OC)c(C(=O)NCC2(N(C)C)CCCCC2)cc1OC,inactive: 8.61%
11,COc1ccc(CN(CCCl)CCCl)cc1Cl,inactive: 1.76%
12,CC(C)c1ccc(NC2CCN(C(=O)OC(C)(C)C)CC2)cc1,inactive: -3.59%
13,CC(C)c1ccc(C(=O)NCC2(N3CCOCC3)CCCCC2)cc1,inactive: -3.05%
14,O=C(NCC1(N2CCOCC2)CCCCC1)c1cc(=O)[nH]c2ccccc12,inactive: 4.68%
15,COc1cc(C(=O)NCC2(N3CCCCC3)CCCCC2)ccc1OC(F)F,inactive: -5.87%
16,O=C(NCC1(N2CCCCC2)CCCCC1)c1cccc([N+](=O)[O-])c1,inactive: 4.27%
17,CSc1ccc(C(=O)NCC2(N3CCOCC3)CCCCC2)cc1,inactive: -2.26%
18,N#CC1(Nc2ccccc2)CCN(CCc2ccccc2)CC1,inactive: -2.95%
